## Primary screen of a compound library

From ChEMBL document CHEMBL3988442, “University of Dundee, Small-Polar-MMV Screening Library” (2021).

A: 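Phenotypic screen: M. tuberculosis growth, cholesterol and DPPC medium, 4 days; the read-out is not stated. Tested at 500 µM. Direction is inferred from retests: higher values go with more growth inhibition. Of about 18,000 compounds tested this way, about 900 (5%) reached 50% or more in at least one test.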
B: 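Phenotypic screen: M. tuberculosis growth, glucose 7H9 medium, 3 days; the read-out is not stated. Tested at 500 µM. Higher reads as more growth inhibition (inferred: compounds with an IC50 in retests scored well above the rest). About 18,000 compounds were tested under these conditions; 7.9% (about 1,400) showed 50% or more at least once.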

Each number is a percent effect as filed. The record does not define 0% and 100%; most values in the screen are far below 50% and negative numbers occur (in some assays of this library far below -100). The entries come from a sample that favours strong results. A dash means the value is not listed here; it may have been measured.

* O=C(CN1CCCC(O)C1)NCCCc1ncc[nH]1 (centres undefined) | B: 0.7018%
* CN(CCn1cnnc1)CC(=O)NCc1ccc(Cl)s1 | B: -7.728%
* Nc1cnccc1OCc1ccccc1 | A: 11.03%; B: 35.96%
* Cc1ccc(CN2CCC(CNS(N)(=O)=O)CC2)cc1 | B: 8.899%
* CN(C)C(=O)CCN1CCC(CNc2ccccn2)C1 (centres undefined) | B: -10.27%
* CCCNC(=O)N1CCCC(C2OCCO2)C1 (centres undefined) | B: 5.973%
* COCC(C)OC(=O)c1scnc1C (centres undefined) | B: -15.01%
* COc1cc(C(C)=O)ccc1OCCCN(C)C | A: 20.76%; B: 25.48%
* Cc1nc[nH]c1C(=O)N(C)CC1CCN(CC(C)C)C1 (centres undefined) | B: 4.272%
* CC(=O)Cc1ccn(C(C)C)n1 | B: -7.753%
* CNCCOc1ccccc1OC | B: 15.71%
* CCCS(=O)(=O)NCc1ccc(S(N)(=O)=O)cc1 | A: -12.37%
* CC(=O)NCCNC(=O)c1ccncc1 | B: 10.91%
* NCc1nc(-c2ccccn2)cs1 | B: 21.12%
* O=c1[nH]c2ccc(NCc3ccncc3)cc2[nH]1 | B: 21.9%
* CC(=O)NCC1CCN(Cc2cc(C(C)C)no2)C1 (centres undefined) | B: 1.698%
* CCS(=O)(=O)N(C)CC(=O)N1CC2(CCC2)CC1C (centres undefined) | B: 3.011%
* CCc1ccccc1OCCN1CCOCC(O)C1 (centres undefined) | B: 18.55%
* CN(CCCNc1ncc(C(N)=O)cc1Cl)S(C)(=O)=O | B: 32.07%
* NC(=O)NC(=O)CN1CCOC(c2ccc(F)cc2)C1 (centres undefined) | A: -6.585%
* CN1CCN(S(C)(=O)=O)Cc2ccccc21 | A: -13.07%; B: 11.02%
* CCn1ncnc1C(C)NC(=O)CN1CCCC1 (centres undefined) | A: -5.329%
* Cn1nc(-c2ccsc2)cc1N | A: 7.44%
* O=C(N[C@@H]1COCC[C@H]1O)C1(CO)CC1 | B: 2.379%
* COC(=O)c1ccc2c(c1)CCCCC2=O | B: -11.42%
* Cc1nnnn1-c1cccc(O)c1 | A: 18.71%
* CC(C)(C)c1cnc(CN2CCOCC2C(N)=O)o1 (centres undefined) | A: 33.66%; B: 62.11%
* CSc1ccc(CN(C)CCC(N)=O)cc1 | B: 8.112%
* COCCOC1CCN(c2cc(N)nc(C)n2)CC1 | A: -6.297%; B: 10.85%
* CS(=O)(=O)NCCCN1CCCCC(N)C1 (centres undefined) | B: -9.283%
* NCc1nnc2ccc(Cl)nn12 | A: -8.317%
* CCNS(=O)(=O)CCNC(=O)Cc1cc(F)ccc1F | A: -10.08%
* O=C(CSCCO)Nc1ncc(-c2ccccc2)s1 | A: 61.03%; B: 71.05%
* CCc1cc(C(=O)N[C@H]2CC[C@@H](N)C2)cc(=O)[nH]1 | A: -21.81%
* COCC1(C(=O)NCCCN(C)c2ccccc2)CC1 | B: 48.34%

Some entries from above, unchanged:

Compound	A	B
CN1CCN(S(C)(=O)=O)Cc2ccccc21	-13.07%	11.02%
CCn1ncnc1C(C)NC(=O)CN1CCCC1 (centres undefined)	-5.329%	-
CCS(=O)(=O)N(C)CC(=O)N1CC2(CCC2)CC1C (centres undefined)	-	3.011%